Data: publication PMC12799219, “In vitro and in vivo studies on the activity and selectivity of butoconazole in experimental infection by Trypanosoma cruzi” (Memórias do Instituto Oswaldo Cruz, 2026)

System: T. cruzi intracellular forms (Tulahuen strain)
Test: In vitro activity on intracellular forms of T. cruzi in L929 cells (β-galactosidase/CPRG)
Format: cell-based, Trypanosoma cruzi
Settings: L929 LC50 / intracellular EC50, 96 h of incubation
Protocol: In vitro activity on intracellular forms of T. cruzi - L929 cells previously seeded in 96-well plates (4 x 10^3 cells/well) were infected (ratio of 10 parasites:1 host cell) for 2 h with trypomastigote forms (Tulahuen strain transfected with the β-galactosidase gene, DTU VI).

| SMILES | SI (ratio LC50/EC50) |
| --- | --- |
| Clc1ccc(CCC(Cn2ccnc2)Sc2c(Cl)cccc2Cl)cc1 (centres unmarked) [BTZ, butoconazole] | 341 |
| O=C(Cn1ccnc1[N+](=O)[O-])NCc1ccccc1 [BZ, benznidazole] | > 231 |
